Measurements reported in patent US20240122867A1, “CORONAL PROTEIN-COATED NANOPARTICLES AND USES THEREOF” (UNIVERSITY OF CENTRAL FLORIDA RESEARCH FOUNDATION, INC., priority 2021, published 2024).

B1: Keratin, type II cytoskeletal 1b (protein, UniProt Q6IFZ6 1-572, looked up)
Keratin, type II cytoskeletal …: MSRQFSSQSAFSSRSRRAYSSRSSSGFGGGRQALVSVSQSRRYGGDYGGGFSSRSLYSLGGSKSIFGNLVGRSASGFCQSRGPGGGFGGGIGGGIGGGRGFGGGGFGGGYGGGGRFGGGFGGAGFGFGGFGPSYPPGGIHEVTINQSLLEPLHLEVDPEIQRVKTQEREQIKTLNNKFASFIDKVRFLEQQNQVLQTKWELLQQVNTSTRTSSLEPVFEEFISQLQRQVDVLTTEQLRQNTEIRNMQDVVEDYKNKYEDEINKRTNAENDFVVLKKDVDAAFMGKSDLQSKVDTLYGEINFLKYLFDTELSQIQTHVSDTNVILSMDNNRSLDLDSIIDAVRAQYEIIAQKSKDEAEALYQTKYQELQITAGKHGDDLKNSKMEISELNRNIQRLRAEIANIKKQVEGMHGLISDAEERGERALQNAKQKLQDMEEALQQAKEDLAKLLRDYQAMLGAKLSLDVEIATYRQLLEGEESRMSGALQSQVSISVQSSQVTIGGGGGGSGSYSGSSRGGGGGGGGTGSRGGGGGGGGSSYVSSSRSATKYGSGGGSSRTQILQTSTHSSRRHVVE
B2: Immunoglobulin J chain (protein, UniProt P01592 22-159, looked up)
Immunoglobulin J chain: GDDEATILADNKCMCTRVTSRIIPSTEDPNEDIVERNIRIVVPLNNRENISDPTSPLRRNFVYHLSDVCKKCDPVEVELEDQVVTATQSNICNEDDGVPETCYMYDRNKCYTTMVPLRYHGETKMVQAALTPDSCYPD
B3: Interleukin-1 receptor accessory protein (protein, UniProt Q61730 21-570, looked up)
Interleukin-1 receptor …: SERCDDWGLDTMRQIQVFEDEPARIKCPLFEHFLKYNYSTAHSSGLTLIWYWTRQDRDLEEPINFRLPENRISKEKDVLWFRPTLLNDTGNYTCMLRNTTYCSKVAFPLEVVQKDSCFNSAMRFPVHKMYIEHGIHKITCPNVDGYFPSSVKPSVTWYKGCTEIVDFHNVLPEGMNLSFFIPLVSNNGNYTCVVTYPENGRLFHLTRTVTVKVVGSPKDALPPQIYSPNDRVVYEKEPGEELVIPCKVYFSFIMDSHNEVWWTIDGKKPDDVTVDITINESVSYSSTEDETRTQILSIKKVTPEDLRRNYVCHARNTKGEAEQAAKVKQKVIPPRYTVELACGFGATVFLVVVLIVVYHVYWLEMVLFYRAHFGTDETILDGKEYDIYVSYARNVEEEEFVLLTLRGVLENEFGYKLCIFDRDSLPGGIVTDETLSFIQKSRRLLVVLSPNYVLQGTQALLELKAGLENMASRGNINVILVQYKAVKDMKVKELKRAKTVLTVIKWKGEKSKYPQGRFWKQLQVAMPVKKSPRWSSNDKQGLSYSSLKNV
B4: Keratin, type II cytoskeletal 1 (protein, UniProt P04104 1-637, looked up)
Keratin, type II cytoskeletal …: MSLQCSSRSLCRGGGGSRNFSSGSAGLVSFQRRSTSSSMRRSGGGGGGRFSGGGFCGSSGSGFGSKSLMNLGGGRSISKSVAGGGGSFCGGFGGGSYGGGGFGGGSYGGGGFGGGSFGGGGFGGSGFGGGLGGGGGFGSGGGFGGGRFGSMGPVCPPGGIQEVTINQSLLQPLNVEVDPQIQKVKSQEREQIKSLNDKFASFIDKVRFLEQQNQVLQTKWELLQQVDTTTRTQNLDPFFENYISILRRKVDSLKSDQSRMDSELKNMQDLVEEYRTKYEDEINKRTNAENEFVTIKKDVDSAYMTKVELQAKADALQQDIDFFSALYQMEMSQMQTQISETNVVLSMDNNRSLDLDGIISEVKAQYDSICQRSKAEAETFYQSKYEELQITAGKHGDSVRNTKMEISELNRMIQRLRSEIDGCKKQISQIQQNINDAEQRGEKALKDAQNKLNEIEDALSQCKEDLARLLRDFQELMNTKLALDMEIATYKKLLEGEEIRMSGECTPNVSVSVSTSHTSMSGSSSRGGGSGGGRYGGGGSYGGGSGGGSYGGSSGGGGSGGSYGGGSGGGSYGGGSGGGSSGSHRGGSGGGGGSSGGSYGGSSGGGRGGSSSGGGGVKSSGSSTVKFVSTSYSRGTK
B5: Keratin, type II cytoskeletal 2 epidermal (protein, UniProt Q3TTY5 1-707, looked up)
Keratin, type II cytoskeletal …: MSCQISCRSRRGGGGGGGGGFRGFSSGSAVVSGGSRRSNTSFSCISRHGGGRGGSGGGGFGSQSLVGLGGYKSISSSVAGNSGGYGGSSFGGSSGFGGGRGFGGGQGFGGSGGFGGGSGFGGGQGFGGGSRFGGGSGFGGGGFGGGSFGGGRFGGGPGGFGGPGGFPGGGIHEVSVNQSLLQPLDVKVDPEIQNVKSQEREQIKTLNNKFASFIDKVRFLEQQNQVLRTKWELLQQLDVGSRTTNLDPIFQAYIGMLKKQVDRLSAERTSQESELNNMQDLVEDFKKKYEDEINKRTSAENDFVTIKKDVDSCYMDKTELQARLDILAQEVNFLRTLYDAELSQLQQDVTDTNVILSMDNNRNLDLDSIIAEVQNQYEMIAHKSKAESEELYHSKYEELQVTAVKHGDSLKEIKMEISELNRTIQRLQGEISHVKKQCKGVQDSIADAEQRGEHAIKDARGKLTDLEEALQQCREDLARLLRDYQELMNTKLSLDVEIATYRKLLEGEECRMSGDFSDNVSVSITSSTISSSVASKTGFGSGGQSSGGRGSYGGRGGGGGGGSTYGSGGRSSGSRGSGSGSGGGGYSSGGGSRGGSGGGYGSGGGSRGGSGGGYGSGGGSGSGGGYSSGGGSRGGSGGGGVSSGGGSRGGSSSGGGSRGGSSSGGGGYSSGGGSRGGSSSGGAGSSSEKGGSGSGEGCGSGVTFSFR
B6: Keratin, type II cytoskeletal 75 (protein, UniProt Q8BGZ7 1-551, looked up)
Keratin, type II cytoskeletal …: MSRQSTITFHSGSRRGFSTASATTPTAGRSRFSSVSVARSSGNSGGLGRISGIGSGFGSRSLYNLGGTRRVSIGGCAGSGFRGGFGGRTSSGFGGSSGFAYGGGIGGGFGGPGFSVCPSGGIQEVTVNQSLLTPLNLQIDPTIQRVRKEEREQIKTLNNKFASFIDKVRFLEQQNKVLETKWNLLQEQGSRTVRQNLEPFFDTYVNDLRRQLDGITAERGRLDAELRNMQEVVEDFKVRYEDEINKRAAAENEFVGLKKDVDSAYMNKVELEAKVDSLTDQINFYRMIYEAELSQMQNQVSDTSVVLSMDNNRSLDLDSIIAEVKAQYEDIANRSRAEAESWYQTKYEELQVTAGRHGDDLRNTKQEISEMNRMIQRLRSEIDAVKKQCSSLQTAISDAEQRGELALKDARAKLMELEDALQKAKQDMARLLREYQELMNVKLALDVEIATYRKLLEGEECRLSGEGVSPVNISVVTSTVSSGYGGGANIGGGSLGLGGNSGYSFTTSGGHSLGTGLGGSGFTTTSSRGPVGSGSSIKFVSSTSSRKSYKH
B7: Complement C1q subcomponent subunit A (protein, UniProt P98086 23-245, looked up)
Complement C1q subcomponent …: EDVCRAPNGKDGAPGNPGRPGRPGLKGERGEPGAAGIRTGIRGFKGDPGESGPPGKPGNVGLPGPSGPLGDSGPQGLKGVKGNPGNIRDQPRPAFSAIRQNPMTLGNVVIFDKVLTNQESPYQNHTGRFICAVPGFYYFNFQVISKWDLCLFIKSSSGGQPRDSLSFSNTNNKGLFQVLAGGTVLQLRRGDEVWIEKDPAKGRIYQGTEADSIFSGFLIFPSA

Tested on: coronal proteins on NPs
Parameters: species or system mouse
Details: for V5 Sera_Nanoparticles Quantitative Value (Normalized Total Spectra): HBPE-NPs incubated 1 h with IAV day 5 (V5) mouse sera, 20:1 NP:sera, centrifuged and washed; for V5 Sera Alone (Control) Quantitative Value (Normalized Total Spectra): IAV day 5 (V5) mouse sera alone, no NPs (sera-only control)

| Molecule | V5 Sera_Nanoparticles Quantitative Value (Normalized Total Spectra) | V5 Sera Alone (Control) Quantitative Value (Normalized Total Spectra) |
| --- | --- | --- |
| B1 | 3.2638 | 7.4018 |
| B2 | 4.3517 | 2.7757 |
| B3 | 4.3517 | 0.9252 |
| B4 | 3.2638 | 12.953 |
| B5 | 3.2638 | 5.5514 |
| B6 | 3.2638 | 5.5514 |
| B7 | 4.3517 | 0 |
